A mixed list of measured activities; the numbers were collected in NIAID ChemDB.

All rows: whole-cell or culture tests

A number after MIC or MFC names an inhibition level or a share of isolates. Percent inhibition refers to the dose given; in toxicity tests it is the harm to the cells. Blank or dashed fields: not listed here. a–b is a range or a potency band. Neighbouring rows are from separate reports.

| structure | organism | strain or isolate | method | conditions | endpoint | tested at | result |
|---|---|---|---|---|---|---|---|
| CCCCCCCN(C(=O)NCc1ccccc1)[C@@H](CC(=O)OCC)C1O[C@@H]2OC(C)(C)O[C@@H]2[C@H]1OC | Mycobacterium aurum |  |  |  | MIC |  | >25 µg/mL |
| CO[C@H]1/C=C/O[C@@]2(C)Oc3c(C)c(O)c4c(=O)c(c5oc6cc(N7CCN(CC(C)C)CC7)cc(=O)c6nc5c4c3=C2O)NC(=O)/C(C)=C\C=C\[C@H](C)[C@H](O)[C@@H](C)[C@@H](O)[C@@H](C)[C@H](OC(C)=O)[C@@H]1C | Mycobacterium ulcerans | ATCC 19423 |  |  | MBC |  | 0.025 µg/mL |
| CO[C@@]1(NC(=O)CSCC#N)C(=O)N2C(C(=O)O)=C(CSc3nnnn3C)CS[C@@H]21 | Mycobacterium fortuitum | 1263 |  |  | MIC |  | 12.5 µg/mL |
| Cc1ccc2nc(C)c(C(=O)NCc3ccc(S(F)(F)(F)(F)F)cc3)n2c1 | Mycobacterium avium |  | fluorescence |  | inhibition | 0.11 µM | 85% |
| O=C(NCc1ccc(N2CCSCC2)cc1)c1c(Cl)nc2ccccn12 | Mycobacterium ulcerans |  | fluorescence |  | MIC50 |  | 0.1–1 µg/mL |
| CCCCN1C(=O)N(c2ccc(F)cc2)C(=O)C[C@H]1C1OC2OC(C)(C)OC2[C@H]1Oc1ccccc1 | Mycobacterium aurum |  |  |  | MIC |  | >25 µg/mL |
| C[C@@H]1CN(c2c(F)c(N)c3c(=O)c(C(=O)O)cn(C4CC4)c3c2F)C[C@H](C)N1 | Mycobacterium avium complex | Isolate 90-1295 |  |  | MBC |  | 2 µg/mL |
| O=C(NNC(=O)c1ccncc1)Nc1ccc(Cl)c(Cl)c1 | Mycobacterium kansasii | My 6509/96 | broth dilution | 14 d | MIC100 |  | 125 µM |
| Cc1cn2c(C(=O)NCc3ccc(N4CCN(c5ccc(OC(F)(F)F)cc5)[C@@H](C)C4)c(F)c3)c(C)nc2s1 | Mycobacterium avium |  | fluorescence |  | inhibition | 0.82 µM | 85% |
| O=C(NNC(=O)c1ccncc1)Nc1ccc(F)c(Cl)c1 | Mycobacterium kansasii | My 6509/96 | broth dilution | 14 d | MIC100 |  | >125 µM |
| Cc1ccn2c(C(=O)NCc3ccc(N4CCN(c5ccc(OC(F)(F)F)cc5)CC4)c(F)c3)c(C)nc2c1 | Mycobacterium avium |  | fluorescence |  | inhibition | 0.023 µM | 85% |
| C[C@H]1c2cccc(O)c2C(O)=C2C(=O)[C@]3(O)C(O)=C(C(N)=O)C(=O)[C@@H](N(C)C)[C@@H]3[C@@H](O)[C@@H]21 | Mycoplasma hominis | 20 strains |  |  | MIC90 |  | 0.05 µg/mL |
| CCc1nc2ccc(Cl)cn2c1C(=O)NCc1ccc(C2CCN(c3ccc(OCC(C)C)cn3)CC2)c(F)c1.Cl | Mycobacterium avium |  | fluorescence |  | inhibition | 0.036 µM | 85% |
| O=C(NNC(=O)c1ccncc1)Nc1ccc(Br)c(F)c1 | Mycobacterium avium | MY330/88 | broth dilution | 14 d | MIC100 |  | >125 µM |
| CC1(C)OC2OC([C@@H]3CC(=O)N(c4ccc(Cl)cc4)C(=O)N3C3CC3)[C@H](Oc3ccccc3)C2O1 | Mycobacterium aurum |  |  |  | MIC |  | >25 µg/mL |
| CC(C)c1ccc(NC(=O)NNC(=O)c2ccncc2)cc1 | Mycobacterium kansasii | My 235/80 | broth dilution | 21 d | MIC100 |  | 32 µM |
| CCCCN1C(=O)N(c2ccc(F)cc2)C(=O)C[C@H]1C1OC2OC(C)(C)OC2[C@H]1OC | Mycobacterium aurum |  |  |  | MIC |  | >25 µg/mL |
| Cc1ccn2c(C(=O)NCc3ccc(-c4ccc(OC(C)C)cc4)c(F)c3)c(C)nc2c1 | Mycobacterium avium |  | fluorescence |  | inhibition | 0.13 µM | 85% |
| CCCCCCCc1ccc(NC(=O)NNC(=O)c2ccncc2)cc1 | Mycobacterium kansasii | My 6509/96 | broth dilution | 7 d | MIC100 |  | 62.5 µM |
| NCC[C@H](O)C(=O)N[C@@H]1C[C@H](N)[C@@H](O[C@H]2O[C@H](CN)[C@@H](O)[C@H](O)[C@H]2O)[C@H](O)[C@H]1O[C@H]1O[C@H](CO)[C@@H](O)[C@H](N)[C@H]1O | Mycobacterium bolletii |  | broth dilution |  | MIC90 |  | 32 µg/mL |
| Fc1cc(Nc2nnc(-c3ccncc3)o2)ccc1Br | Mycobacterium kansasii | My 6509/96 | broth dilution | 7 d | MIC100 |  | >125 µM |
| Cc1ccc2nc(C)c(C(=O)NCc3ccc(OC(F)(F)F)cc3)n2c1 | Mycobacterium ulcerans |  | fluorescence |  | MIC50 |  | 0.01–0.1 µg/mL |
| CO[C@@]1(NC(=O)Cc2cccs2)C(=O)N2C(C(=O)O)=C(COC(N)=O)CS[C@@H]21 | Mycobacterium fortuitum | 1059 |  |  | MIC |  | 50 µg/mL |
| O=C(NNC(=O)c1ccncc1)Nc1ccc(F)c(C(F)(F)F)c1 | Mycobacterium kansasii | My 6509/96 | broth dilution | 14 d | MIC100 |  | 62.5 µM |
| CO[C@H]1/C=C/O[C@@]2(C)Oc3c(C)c(O)c4c(O)c(c5c(c4c3C2=O)NC2(CCN(CC(C)C)CC2)N=5)=NC(=O)/C(C)=C\C=C\[C@H](C)[C@H](O)[C@@H](C)[C@@H](O)[C@@H](C)[C@H](OC(C)=O)[C@@H]1C | Mycobacterium avium intracellulare | 12-Feb |  |  | MIC |  | 0.125 µg/mL |
| NNC(=O)c1ccncc1 | Mycobacterium smegmatis | MC^2 846 |  |  | MIC |  | 60 µg/mL |
| CO[C@@]1(NC(=O)Cc2ccccc2)C(=O)N2C(C(=O)[O-])=C(CSc3nnc(C)s3)CSC21 | Mycobacterium fortuitum | 1048 |  |  | MIC |  | 100 µg/mL |
| O=C(NNC(=O)c1ccncc1)Nc1ccc(Br)cc1F | Mycobacterium kansasii | My 235/80 | broth dilution | 21 d | MIC100 |  | >125 µM |
| Cc1nc2ccc(Br)cn2c1C(=O)NCc1ccc(-c2ccc(Cl)cc2)cc1 | Mycobacterium ulcerans |  | fluorescence |  | MIC50 |  | 0.001–0.01 µg/mL |
| CCc1nc2ccc(Cl)cn2c1C(=O)NCc1ccc(-n2cc3c(n2)CN(c2ccc(OC(F)(F)F)cc2)C3)c(F)c1.Cc1ccc(S(=O)(=O)O)cc1 | Mycobacterium avium |  | fluorescence |  | inhibition | 0.0046 µM | 85% |
| CO[C@@]1(NC(=O)Cn2cnnn2)C(=O)N2C(C(=O)O)=C(CSc3nnc(C)s3)CSC21 | Mycobacterium fortuitum | 1260 |  |  | MIC |  | 50 µg/mL |
| CCCCOc1ccc(N2CCC(c3ccc(CNC(=O)c4c(CC)nc5cc(F)ccn45)c(F)c3)CC2)cc1.Cl | Mycobacterium avium |  | fluorescence |  | inhibition | 0.01 µM | 85% |
| CC1(C)N=C(N)N=C(N)N1OCCCOc1cc(Cl)c(Cl)cc1Cl | Mycobacterium avium complex | 3009 |  |  | MIC |  | 4 µg/mL |
| CO[C@@]1(NC(=O)CCCC(N)C(=O)O)C(=O)N2C(C(=O)O)=C(COC(C)=O)CSC21 | Mycobacterium fortuitum | 1260 |  |  | MIC |  | >100 µg/mL |
| O=C(NCCc1ccc(O)cc1)c1c(Cl)nc2ccccn12 | Mycobacterium ulcerans |  | fluorescence |  | MIC50 |  | >10 µg/mL |
| CCOc1ccc(N2CCN(c3ccc(CNC(=O)c4c(CC)nc5ccc(Cl)cn45)cc3F)C[C@@H]2C)cc1F.Cl | Mycobacterium avium |  | fluorescence |  | inhibition | 0.037 µM | 85% |